Laboratory results: PubChem BioAssay AID1259414 (Drosophila RNAi Screening Center, 2018)

- Assay: 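Host factors increasing or decreasing Wolbachia levels in cultured fly cells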 (primary screen)
- System: Drosophila JW18 cells infected with Wolbachia
- Reagent: long dsRNA against Drosophila genes, 0.25 µg dsRNA per well of a 384-well plate
- Time to read-out: 5 days
- Challenge: cells persistently infected with Wolbachia before knock-down; no added drug
- Measured: 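Imaged fluorescence in situ signal for Wolbachia 23S rRNA per DAPI-counted host cell, given as a robust z-score within each plate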
- Scale: Wolbachia per cell robust z: higher = more Wolbachia per host cell than the plate typical
- Rule for the call: 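Active if absolute robust z reaches 1.5 in two or more of three replicates, leaving out multi- or no-target dsRNAs, genes unexpressed in JW18 and A1 wells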
The screen tested about 24,000 reagents; this is a random part of those with a known target gene and a result. Over the whole deposit, about 1,210 (5%) got an active call. 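Inactive calls also include excluded dsRNAs with several or no targets, genes unexpressed in JW18, and well A1, regardless of score.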 Unmarked entries are inactive. Reagents against one gene are numbered here.

For CG16711 #1 the deposit lists Wolbachia per cell robust z, rep 1 = -3.05; Wolbachia per cell robust z, rep 2 = -0.0882; Wolbachia per cell robust z, rep 3 = -0.408. After knock-down of CG16711 #2, the screen gave Wolbachia per cell robust z, rep 1 = 0.236; Wolbachia per cell robust z, rep 2 = -0.694; Wolbachia per cell robust z, rep 3 = -10.1. Knock-down of Caf1-180 #1 gave: Wolbachia per cell robust z, rep 1 = 1.69; Wolbachia per cell robust z, rep 2 = 0.822; Wolbachia per cell robust z, rep 3 = -0.28. Depletion of Caf1-180 #2 resulted in: Wolbachia per cell robust z, rep 1 = 1.12; Wolbachia per cell robust z, rep 2 = 1.23; Wolbachia per cell robust z, rep 3 = 2.47. Against pnt #1, the entry reads Wolbachia per cell robust z, rep 1 = 0.228; Wolbachia per cell robust z, rep 2 = 1.41; Wolbachia per cell robust z, rep 3 = 0.141. pnt #2 showed Wolbachia per cell robust z, rep 1 = 0.534; Wolbachia per cell robust z, rep 2 = 0.285; Wolbachia per cell robust z, rep 3 = 1.85.

CG3281 #1 gave Wolbachia per cell robust z, rep 1 = 0.621; Wolbachia per cell robust z, rep 2 = -0.577; Wolbachia per cell robust z, rep 3 = 1.03. Knock-down of CG3281 #2 resulted in: Wolbachia per cell robust z, rep 1 = 0.81; Wolbachia per cell robust z, rep 2 = 1.23; Wolbachia per cell robust z, rep 3 = 0.923. For TSG101, the entry reads Wolbachia per cell robust z, rep 1 = -0.277; Wolbachia per cell robust z, rep 2 = 0.647; Wolbachia per cell robust z, rep 3 = -0.413. After knock-down of dpp #1, the record shows Wolbachia per cell robust z, rep 1 = -0.931; Wolbachia per cell robust z, rep 2 = 0.412; Wolbachia per cell robust z, rep 3 = 0.604. Against dpp #2, the entry reads Wolbachia per cell robust z, rep 1 = -0.552; Wolbachia per cell robust z, rep 2 = 0.68; Wolbachia per cell robust z, rep 3 = -0.133. dpp #3 showed Wolbachia per cell robust z, rep 1 = 0.665; Wolbachia per cell robust z, rep 2 = -0.119; Wolbachia per cell robust z, rep 3 = 0.678.

Knock-down of dpp #4 resulted in: Wolbachia per cell robust z, rep 1 = -0.745; Wolbachia per cell robust z, rep 2 = -1.47; Wolbachia per cell robust z, rep 3 = -0.428. After knock-down of CkIIalpha-i3 the results were Wolbachia per cell robust z, rep 1 = 0.198; Wolbachia per cell robust z, rep 2 = 0.64; Wolbachia per cell robust z, rep 3 = -0.343. exex #1 scored Wolbachia per cell robust z, rep 1 = -0.681; Wolbachia per cell robust z, rep 2 = -4.06; Wolbachia per cell robust z, rep 3 = 0.269. Against exex #2, the values are Wolbachia per cell robust z, rep 1 = -1.68; Wolbachia per cell robust z, rep 2 = -1.51; Wolbachia per cell robust z, rep 3 = -0.622. cort #1 gave Wolbachia per cell robust z, rep 1 = 1.02; Wolbachia per cell robust z, rep 2 = 0.402; Wolbachia per cell robust z, rep 3 = 1.24. Against cort #2, the entry reads Wolbachia per cell robust z, rep 1 = -2.45; Wolbachia per cell robust z, rep 2 = -1.49; Wolbachia per cell robust z, rep 3 = -0.297.

CG8630 #1 gave Wolbachia per cell robust z, rep 1 = 0.463; Wolbachia per cell robust z, rep 2 = 1.29; Wolbachia per cell robust z, rep 3 = 1.86. CG8630 #2 showed Wolbachia per cell robust z, rep 1 = 0.0308; Wolbachia per cell robust z, rep 2 = -0.213; Wolbachia per cell robust z, rep 3 = 1.27. After knock-down of CG43342, the record shows Wolbachia per cell robust z, rep 1 = -1.22; Wolbachia per cell robust z, rep 2 = -2.08; Wolbachia per cell robust z, rep 3 = -1.23. Depletion of btd #1 came out at: Wolbachia per cell robust z, rep 1 = 0.733; Wolbachia per cell robust z, rep 2 = 0.779; Wolbachia per cell robust z, rep 3 = 0.845. With knock-down of btd #2, the record shows Wolbachia per cell robust z, rep 1 = -0.358; Wolbachia per cell robust z, rep 2 = 0.755; Wolbachia per cell robust z, rep 3 = -0.57. Against CG17028 #1 the deposit lists Wolbachia per cell robust z, rep 1 = 0.171; Wolbachia per cell robust z, rep 2 = -0.385; Wolbachia per cell robust z, rep 3 = 0.235.

With knock-down of CG17028 #2, the record shows Wolbachia per cell robust z, rep 1 = 0.446; Wolbachia per cell robust z, rep 2 = -1.9; Wolbachia per cell robust z, rep 3 = -1.14. CG17028 #3 showed Wolbachia per cell robust z, rep 1 = 0.921; Wolbachia per cell robust z, rep 2 = 0.721; Wolbachia per cell robust z, rep 3 = -1.23.
